The target in test [1] is human α6/α3β2β3 nAChR (human), P17787. Put plainly: cell-based or functional assay.
For test [2], the target named is rat α7 nAChR (rat), Q05941. Put plainly: cell-based or functional assay.

For GCCSHPACNVDHPEIC (modifications not checked) [α-conotoxin LvIA/LvD21], the IC50 (half-blocking dose) of ACh-gated current, Xenopus oocytes was determined as 5.34 µM in test [1] and 3 µM in test [2].

(Values after patent US20150299276A1, “α-conotoxin peptide, pharmaceutical composition and use thereof” (published 2015).)
